A mixed list of measured activities; the numbers were collected in NIAID ChemDB.

All rows: tests in culture; species: HIV-1; read by: MTT; measure: EC50

ECn: concentration that inhibits the pathogen or its effect by n%. Blank or dashed fields: not listed here. Rows are shuffled and stem from different studies.

SMILES,cell line,strain or isolate,mutations,result
CCc1c(Cc2cc(C)cc(C)c2)n(COCC#Cc2ccc(C=O)cc2)c(=O)[nH]c1=O,MT-4,IIIB,Y181C,1.7 µM
COc1nc(N(C)C)nc(C(=O)c2c(F)cccc2F)c1C,MT-4,IIIB,,>20 µM
Cc1c(C(C)(O)c2ccccc2F)n(COCc2ccccc2)c(=O)[nH]c1=O,MT-4,IIIB,,>185 µM
Nc1ccn([C@@H]2CS[C@H](CO)O2)c(=O)n1,MT-4,RES056,,5 µM
Cc1cc(/C=C/C#N)cc(C)c1Oc1ccnc(S(=O)(=O)CC(=O)Nc2ccc(Cl)cc2)n1,MT-4,IIIB,Y181C,0.021 µM
Cc1ccc(-c2c(C)c3c(c(C)c2[C@H](OC(C)(C)C)C(=O)O)N(S(C)(=O)=O)Cc2cccc(F)c2-3)c(O)c1,MT-4,,T174I,>50 µM
Cc1ccc(N2C(=O)CS/C2=N\c2nc3ccccc3s2)cc1,MT-4,IIIB,,>100 µM
COc1cc(Cc2[nH]c(=O)[nH]c(=O)c2C(C)C)cc(OC)c1,MT-4,IIIB,Efavirenz-resistant (K103R + V179D + P225H),>100 µM
CCc1c(Cc2ccccc2C)n(COCC#CC2c3ccccc3-c3ccccc32)c(=O)[nH]c1=O,MT-4,IIIB,EFV-resistant (K103R V179D P225H),>50 µM
CCOCn1c(Cc2ccc(OC)c(OC)c2)c(CC)c(=O)[nH]c1=O,MT-4,EFVR,K103R/V179D/P225H,>100 µM
CN(C)c1nc(Cl)cc(C(C#N)c2c(F)cccc2F)n1,C8166,IIIB,EFV-resistant (K103R V179D P225H),>80 µM
Cc1nc2c(c(C)c(C)n2CCN(C)C)c(-c2ccc(Cl)cc2)c1[C@H](OC(C)(C)C)C(=O)O,MT-4,IIIB,,0.09046 µM
C=CCOCn1c(Cc2c(F)c(F)cc(F)c2F)c(CC)c(=O)[nH]c1=O,MT-4,N119 (Y181C),,40 µM
CCc1c(Cc2ccc(OC)c(OC)c2)n(COCCc2ccccc2)c(=O)[nH]c1=O,MT-4,A17,K103N/Y181C,>73 µM
C#CCOCn1c(Cc2c(F)c(F)cc(F)c2F)c(CC)c(=O)[nH]c1=O,MT-4,A17,K103N + Y181C,>5 µM
Cc1cc(C)cc(S(=O)(=O)c2c(C(=O)NS(=O)(=O)C(F)(F)F)[nH]c3ccc(Cl)cc23)c1,MT-4,,E138K,3.78 µM
COc1nc(N(C)C)nc(Cc2c(F)cccc2F)c1C,MT-4,IIIB,K103N + Y181C,>67 µM
COc1ccc(C(O)(c2c(C)c(=O)[nH]c(=O)n2COCc2ccccc2)C(C)C)cc1,MT-4,IIIB,,>90.18 µM
CC(=O)N1Cc2ccccc2-c2c(C)c(-c3ccc(C)cc3)c([C@H](OC(C)(C)C)C(=O)O)c(C)c21,MT-4,,T174I,0.81 µM
Cc1cc(C)cc(Cc2c(C(C)C)c(=O)[nH]c(=O)n2COCCOc2ccccc2)c1,MT-4,IIIB,,>0.01 µM
Cc1cc(/C=C/C#N)cc(C)c1Oc1nc(NC2CCN(Cc3cccc(F)c3)CC2)nc2ccsc12,MT-4,IIIB,NNRTI-resistant (RT K103N),0.0211 µM
Cc1cc(C)cc(S(=O)(=O)c2c(C(=O)NS(=O)(=O)c3ccc(F)cc3F)[nH]c3ccc(Cl)cc23)c1,MT-4,,Y188L,>167 µM
O=C1Nc2ccc(Cl)cc2[C@@](C#CC2CC2)(C(F)(F)F)O1,MT-4,EFVR,K103R/V179D/P225H,14 µM
COc1nc(N(C)C)nc(C(C#N)c2c(F)cccc2F)c1C,MT-4,IIIB,K103N + Y181C,>10 µM
C=C(C)COCn1c(Cc2ccccc2)c(CF)c(=O)[nH]c1=O,MT-4,Clinical isolates,Y181C,>20 µM
Cc1nc2c(c(C)c(C)n2CC2(O)CC2)c(-c2ccc(Cl)cc2)c1[C@H](OC(C)(C)C)C(=O)O,MT-4,IIIB,,0.0206 µM
Cc1cccc(C(C)c2c(C)c(=O)[nH]c(=O)n2COCc2ccccc2)c1,MT-4,IIIB,,>343 µM
C#CCOCn1c(Cc2ccccc2)c(CF)c(=O)[nH]c1=O,MT-4,IIIB,K103N + Y181C,>100 µM
Cc1cc(-c2ccc(C#N)cc2)cc(C)c1Oc1ccnc(S(=O)(=O)CC(=O)Nc2ccc(Cl)cc2)n1,MT-4,IIIB,E138K,0.197 µM
Cc1cc(/C=C/C#N)cc(C)c1Oc1nc(NC2CCN(Cc3cccc(Cl)c3)CC2)nc2ccsc12,MT-4,IIIB,NNRTI-resistant (RT F227L V106A),0.0683 µM
Cc1c(Cl)nc(N(C)C)nc1C(C#N)c1c(F)cccc1F,MT-4,IIIB,Y181C,>34 µM
Cc1nc2c(c(C)c(C)n2C)c(-c2ccc(Cl)cc2)c1[C@H](OC(C)(C)C)C(=O)O,MT-4,IIIB,,0.00627 µM
CCC(c1ccccc1C)c1c(C)c(=O)[nH]c(=O)n1COCc1ccccc1,MT-4,IIIB,,>43.12 µM
Cc1cc(C#N)cc(C)c1Oc1nc(NC2CCC(NCc3ccc(F)cc3)CC2)nc2ccsc12,MT-4,IIIB,NNRTI-resistant (RT F227L V106A),>2.77 µM
Cc1cccc(C(C)c2c(C(C)C)c(=O)[nH]c(=O)n2COCc2ccccc2)c1,MT-4,IIIB,F227L + V106A,5.45 µM
CCc1c(Cc2ccccc2C)n(COC/C(Br)=C(\Br)c2ccccc2)c(=O)[nH]c1=O,MT-4,IIIB,Y181C,8 µM
Cc1cc(C#CCCO)cc(C)c1Oc1ccnc(Nc2ccc(C#N)cc2)n1,MT-4,IIIB,K103N,0.026 µM
Cc1cc(C)cc(S(=O)(=O)c2c(C(=O)NCCn3ccc(=O)[nH]c3=O)[nH]c3ccc(Cl)cc23)c1,MT-4,RES056,,>9.44 µM
CCOCn1c(Cc2ccccc2)c(C(C)C)c(=O)[nH]c1=O,MT-4,,K103N + Y181C,>100 µM
CCOCn1c(Cc2cc(F)ccc2F)c(CC)c(=O)[nH]c1=O,MT-4,EFV-resistant (K103R V179D P225H),,>100 µM
Cc1cc(-c2ccc(C#N)cc2)cc(C)c1Oc1ccnc(S(=O)(=O)CC(=O)NCCc2ccc(Br)cc2)n1,MT-4,IIIB,,>8.44 µM
CCOCn1c(Cc2c(F)c(F)cc(F)c2F)c(CC)c(=O)[nH]c1=O,MT-4,N119 (Y181C),,23 µM
C#Cc1ccc(Nc2nccc(Oc3c(C)cc(-c4cn(Cc5ccc(C(=O)OC)cc5)nn4)cc3C)n2)cc1,MT-4,IIIB,K103N,0.35 µM
CCc1c(Cc2ccc(C)cc2)n(COCc2ccccc2)c(=O)[nH]c1=O,MT-4,A17,K103N/Y181C,>44 µM
CC(NC(=S)Nc1nc2ccccc2s1)c1ccccc1,MT-4,IIIB,MDR,3 µM
CCc1c(Cc2ccc(C)cc2)n(COCCc2ccccc2)c(=O)[nH]c1=O,MT-4,IIIB,,>60 µM
Cc1ccc(-c2c(C)c3c(c(C)c2[C@H](OC(C)(C)C)C(=O)O)N(S(C)(=O)=O)Cc2cccc(F)c2-3)cc1,MT-4,,,0.0055 µM
COc1ccc(C(C)c2c(C(C)C)c(=O)[nH]c(=O)n2COCc2ccccc2)cc1,MT-4,IIIB,,>33.28 µM
Cc1nc2c(c(C)c(C)n2CC2C(=O)c3ccccc3C2=O)c(-c2ccc(Cl)cc2)c1C(OC(C)(C)C)C(=O)O,MT-4,IIIB,,5.51 µM
CCC(c1cccc(C)c1)c1c(C)c(=O)[nH]c(=O)n1COCc1ccccc1,MT-4,IIIB,,>32.84 µM
Cc1cc(-c2ccc(C#N)cc2)cc(C)c1Oc1ccnc(S(=O)(=O)C(C)C(=O)Nc2ccc(Cl)cc2)n1,MT-4,IIIB,Y188L,1.002 µM
CCc1c(Cc2cc(C)cc(C)c2)n(Cc2ccc(C#CCF)cc2)c(=O)[nH]c1=O,MT-4,Clinical isolates,Y181C,0.6 µM
Cc1cc(C)cc(S(=O)(=O)c2c(C(=O)NS(=O)(=O)c3ccc(F)cc3)[nH]c3ccc(Cl)cc23)c1,MT-4,,K103N,14.98 µM
Cc1cc(/C=C/C#N)cc(C)c1Oc1nc(NC2CCN(Cc3cccc(Br)c3)CC2)nc2ccsc12,MT-4,IIIB,NNRTI-resistant (RT K103N),0.0295 µM
C=CCOCn1c(Cc2ccccc2)c(CF)c(=O)[nH]c1=O,MT-4,,,6 µM
Cc1cc(C#N)cc(C)c1Oc1nc(NC2CCC(NCc3ccc([N+](=O)[O-])cc3)CC2)nc2ccsc12,MT-4,IIIB,NNRTI-resistant (RT L100I),1.55 µM
CCCS(=O)(=O)NC(=O)c1[nH]c2ccc(Cl)cc2c1S(=O)(=O)c1cc(C)cc(C)c1,MT-4,,Y188L,>141 µM
C=CCn1cc(COCn2c(Cc3cc(C)cc(C)c3)c(CC)c(=O)[nH]c2=O)nn1,MT-4,IIIB,Y181C,2.6 µM
C#CCOCn1c(Cc2ccccc2)c(CO)c(=O)[nH]c1=O,MT-4,IIIB,EFV:K103R+V179D+P225H,>100 µM
CCOCn1c(Cc2cccc(F)c2)c(CC)c(=O)[nH]c1=O,MT-4,N119 (Y181C),,18 µM
CCc1c(Cc2cc(C)cc(C)c2)n(COCC#Cc2cccs2)c(=O)[nH]c1=O,MT-4,IIIB,K103N + Y181C,5 µM
Cc1nc2c(c(C)c(C)n2CC2CCCC2)c(-c2ccc(Cl)cc2)c1[C@H](OC(C)(C)C)C(=O)O,MT-4,IIIB,,0.1449 µM
CCc1c(Cc2ccccc2)n(COCCOc2ccccc2)c(=O)[nH]c1=O,MT-4,N119,Y181C,>32 µM
CCc1c(Cc2ccccc2C)n(COCC#Cc2ccccc2)c(=O)[nH]c1=O,MT-4,IIIB,EFV-resistant (K103R V179D P225H),>26 µM
C#Cc1ccc(Nc2nccc(Oc3c(C)cc(-c4cn(CCc5cccs5)nn4)cc3C)n2)cc1,MT-4,IIIB,F227L and V106A,>5.53 µM
Cc1cc(/C=C/C#N)cc(C)c1Oc1ccnc(S(=O)(=O)CC(=O)NCc2ccc(F)cc2)n1,MT-4,IIIB,,1.854 µM
CCOCn1c(Cc2cc(OC)cc(OC)c2)c(C(C)C)c(=O)[nH]c1=O,MT-4,N119,Y181C,28 µM
Cc1ccnc2c1NC(=O)c1cccnc1N2C1CC1,MT-4,IIIB,K103N,5.6 µM
CCc1c(Cc2ccccc2)n(COCC2CC2)c(=O)[nH]c1=O,MT-4,N119,Y181C,>100 µM
CCc1c(Cc2cc(C)cc(C)c2)n(COCC#Cc2ccc(O)cc2)c(=O)[nH]c1=O,MT-4,IIIB,EFV-resistant (K103R V179D P225H),20 µM
Fc1ccc(NC(=S)Nc2nc3ccccc3s2)cc1Cl,MT-4,IIIB,,>14 µM
Cc1cc(/C=C/C#N)cc(C)c1Oc1nc(NC2CCN(Cc3ccc(Br)cc3)CC2)nc2ccsc12,MT-4,IIIB,NNRTI-resistant (RT Y181C),0.127 µM
Cc1cn([C@H]2C[C@H](N=[N+]=[N-])[C@@H](CO)O2)c(=O)[nH]c1=O,MT-4,IIIB,A17,0.01 µM
Cc1nc2c(c(C)c(C)n2CC2CC2)c(-c2ccc(Cl)cc2)c1[C@@H](OC(C)(C)C)C(=O)O,MT-4,IIIB,,>100 µM
CCc1c(Cc2ccc(OC)c(OC)c2)n(COCc2ccccc2)c(=O)[nH]c1=O,MT-4,N119,Y181C,>80 µM
CCOCn1c(Cc2cccc(C(F)(F)F)c2)c(CC)c(=O)[nH]c1=O,MT-4,N119 (Y181C),,4.5 µM

The last 4 rows once more:

SMILES | cell line | strain or isolate | mutations | result
Cc1cn([C@H]2C[C@H](N=[N+]=[N-])[C@@H](CO)O2)c(=O)[nH]c1=O | MT-4 | IIIB | A17 | 0.01 µM
Cc1nc2c(c(C)c(C)n2CC2CC2)c(-c2ccc(Cl)cc2)c1[C@@H](OC(C)(C)C)C(=O)O | MT-4 | IIIB |  | >100 µM
CCc1c(Cc2ccc(OC)c(OC)c2)n(COCc2ccccc2)c(=O)[nH]c1=O | MT-4 | N119 | Y181C | >80 µM
CCOCn1c(Cc2cccc(C(F)(F)F)c2)c(CC)c(=O)[nH]c1=O | MT-4 | N119 (Y181C) |  | 4.5 µM